Results of unrelated studies side by side (data: NIAID ChemDB).

All rows: whole-cell or culture tests; agent: Mycobacterium avium complex; read-out: MIC

Blank or dashed fields: not listed here.

| structure | strain or isolate | read by | value |
|---|---|---|---|
| Fc1cccc(Cl)c1CSc1nc2ccccc2[nH]1 | MY330/88 |  | 16 µM |
| NCC[C@H](O)C(=O)N[C@@H]1C[C@H](N)[C@@H](O[C@H]2O[C@H](CN)[C@@H](O)[C@H](O)[C@H]2O)[C@H](O)[C@H]1O[C@H]1O[C@H](CO)[C@@H](O)[C@H](N)[C@H]1O | TMC 1473 |  | 0.78 µg/mL |
| Fc1cccc(CSc2nc3ccccc3[nH]2)c1 | MY330/88 |  | 125 µM |
| O=C(O)c1cn(C2CC2)c2c(F)c(N3CCC(NC4CC4)C3)c(F)cc2c1=O | PI12/39 |  | 1 µg/mL |
| NC[C@H]1O[C@H](O[C@H]2[C@H](O)[C@@H](O[C@H]3O[C@H](CO)[C@@H](O)[C@H](N)[C@H]3O)[C@H](N)C[C@@H]2N)[C@H](O)[C@@H](O)[C@@H]1O | N-962 (HIV+) |  | 8 µg/mL |
| CCn1cc(C(=O)O)c(=O)c2cc(F)c(N3CCNCC3)nc21 | CIPT 140310023 |  | 40 µg/mL |
| N#Cc1ccc(CSc2nc3ccccc3[nH]2)cc1 | MY330/88 |  | 32 µM |
| CO[C@H]1/C=C/O[C@@]2(C)Oc3c(C)c(O)c4c(O)c(c(/C=N/N5CCN(C)CC5)c(O)c4c3C2=O)NC(=O)/C(C)=C\C=C\[C@H](C)[C@H](O)[C@@H](C)[C@@H](O)[C@@H](C)[C@H](OC(C)=O)[C@@H]1C | 13034 (serotype 18) |  | 100 µg/mL |
| NC[C@H]1O[C@H](O[C@H]2[C@H](O[C@@H]3O[C@H](CO)[C@@H](O)[C@H]3O)[C@@H](O)[C@H](N)C[C@@H]2N)[C@H](N)[C@@H](O)[C@@H]1O | Isolate 93 |  | 1.56 µg/mL |
| NC(=S)c1ccc(CSc2nc3ccccc3[nH]2)cc1 | MY330/88 |  | 62 µM |
| NC1CCN(c2c(F)cc3c(=O)c(C(=O)O)cn(C4CC4)c3c2F)C1 | PI12/39 |  | 8 µg/mL |
| NCC[C@H](O)C(=O)N[C@@H]1C[C@H](N)[C@@H](O[C@H]2O[C@H](CN)[C@@H](O)[C@H](O)[C@H]2O)[C@H](O)[C@H]1O[C@H]1O[C@H](CO)[C@@H](O)[C@H](N)[C@H]1O | 711/HIV- |  | 4 µg/mL |
| CC(C)Sc1nc2ccccc2[nH]1 | MY330/88 |  | >500 µM |
| CC1CN(c2c(F)c(N)c3c(=O)c(C(=O)O)cn(C4CC4)c3c2F)CCN1C | 1760694 |  | 8 µg/mL |
| C[C@@H]1CN(c2c(F)c(N)c3c(=O)c(C(=O)O)cn(C4CC4)c3c2F)C[C@H](C)N1 | 6 | broth dilution | 2 µg/mL |
| NCC1CCN(c2c(F)cc3c(=O)c(C(=O)O)cn(C4CC4)c3c2F)C1 | 1172733 |  | 2 µg/mL |
| CCn1cc(C(=O)O)c(=O)c2cc(F)c(N3CCN(C)CC3)cc21 | CIPT 14031002 |  | 20 µg/mL |
| FC(F)(F)c1cccc(CSc2nc3ccccc3[nH]2)c1 | MY330/88 |  | 62 µM |
| CC[C@H]1OC(=O)[C@H](C)[C@@H](O[C@H]2C[C@@](C)(OC)[C@@H](O)[C@H](C)O2)[C@H](C)[C@@H](O[C@@H]2O[C@H](C)C[C@H](N(C)C)[C@H]2O)[C@](C)(O)C[C@@H](C)C(=O)[C@H](C)[C@@H](O)[C@]1(C)O | 3215 |  | 32 µg/mL |
| NC[C@H]1O[C@H](O[C@H]2[C@H](O)[C@@H](O[C@H]3O[C@H](CO)[C@@H](O)[C@H](N)[C@H]3O)[C@H](N)C[C@@H]2N)[C@H](O)[C@@H](O)[C@@H]1O | TMC 1473 |  | 0.78 µg/mL |
| C[C@@H]1CN(c2c(F)c(N)c3c(=O)c(C(=O)O)cn(C4CC4)c3c2F)C[C@H](C)N1 | PI12/39 |  | 2 µg/mL |
| CC[C@H]1OC(=O)[C@H](C)[C@@H](O[C@H]2C[C@@](C)(OC)[C@@H](O)[C@H](C)O2)[C@H](C)[C@@H](O[C@@H]2O[C@H](C)C[C@H](N(C)C)[C@H]2O)[C@](C)(OC)C[C@@H](C)C(=O)[C@H](C)[C@@H](O)[C@]1(C)O | 3216 |  | 2 µg/mL |
| CC(C)N=c1cc2n(-c3ccc(Cl)cc3)c3ccccc3nc-2cc1Nc1ccc(Cl)cc1 | 733/HIV+ |  | 0.12 µg/mL |
| NCC[C@H](O)C(=O)N[C@@H]1C[C@H](N)[C@@H](O[C@H]2O[C@H](CN)[C@@H](O)[C@H](O)[C@H]2O)[C@H](O)[C@H]1O[C@H]1O[C@H](CO)[C@@H](O)[C@H](N)[C@H]1O | 3212 |  | 8 µg/mL |
| NC1CCCCN(c2c(F)cc3c(=O)c(C(=O)O)cn(C4CC4)c3c2F)C1=O | PI12/39 |  | 32 µg/mL |
| NCCC(O)C(N)CC(=O)NC1CNC(=O)C(C2CCN=C(N)N2)NC(=O)/C(=C/NC(N)=O)NC(=O)C(CO)NC(=O)C(CO)NC1=O | Isolate 122 |  | 100 µg/mL |
| CN[C@@H]1[C@H](O[C@H]2[C@H](O[C@H]3[C@H](O)[C@@H](O)[C@H](N=C(N)N)[C@@H](O)[C@@H]3N=C(N)N)O[C@@H](C)[C@]2(O)C=O)O[C@@H](CO)[C@H](O)[C@H]1O | Isolate C-43 |  | ≤12.5 µg/mL |
| NNC(=O)c1ccncc1 | 13034 (serotype 18) |  | 1.6 µg/mL |
| O=[N+]([O-])c1ccc(CSc2nc3ccccc3[nH]2)c([N+](=O)[O-])c1 | MY330/88 |  | 16 µM |

A second listing of 4 rows from above:

| structure | strain or isolate | read by | value |
|---|---|---|---|
| NC1CCN(c2c(F)cc3c(=O)c(C(=O)O)cn(C4CC4)c3c2F)C1 | PI12/39 |  | 8 µg/mL |
| CN[C@@H]1[C@H](O[C@H]2[C@H](O[C@H]3[C@H](O)[C@@H](O)[C@H](N=C(N)N)[C@@H](O)[C@@H]3N=C(N)N)O[C@@H](C)[C@]2(O)C=O)O[C@@H](CO)[C@H](O)[C@H]1O | Isolate C-43 |  | ≤12.5 µg/mL |
| NC1CCCCN(c2c(F)cc3c(=O)c(C(=O)O)cn(C4CC4)c3c2F)C1=O | PI12/39 |  | 32 µg/mL |
| NCC[C@H](O)C(=O)N[C@@H]1C[C@H](N)[C@@H](O[C@H]2O[C@H](CN)[C@@H](O)[C@H](O)[C@H]2O)[C@H](O)[C@H]1O[C@H]1O[C@H](CO)[C@@H](O)[C@H](N)[C@H]1O | 711/HIV- |  | 4 µg/mL |

Conditions beyond the fields shown may differ between rows.